Test system: HIV (MT4-IIIB)
Test: Anti-HIV activity: inhibition of HIV-induced cytopathogenic effect in MT-4 cells (MTT)
Type: cell-based
Conditions: selectivity index, ratio of CC50 to IC50

| Structure (SMILES) | SI |
| --- | --- |
| CCCC(C(=O)O)c1c(C)nc(-c2ccccc2)nc1-c1ccc(C)cc1F (stereo not shown) [cpd 98] | 3 |
| CCCC(C(=O)O)c1c(C)nc(-c2ccccc2)nc1-c1ccc(Cl)cc1 (stereo not shown) [cpd 102] | 11 |
| CCCC(C(=O)O)c1c(C)nc(N2CCCCC2)nc1-c1ccc(C)cc1 (stereo not shown) [cpd 22] | 11 |
| CCCC(C(=O)O)c1c(C)nc(N2CCCC2)nc1-c1ccc(C)cc1 (stereo not shown) [cpd 30] | 9 |
| CCCC(C(=O)O)c1c(C)nc(-c2ccccc2O)nc1-c1ccc(C)cc1 (stereo not shown) [cpd 158] | 7 |
| CCCC(C(=O)O)c1c(C)nc(N(C)C2CCCCC2)nc1-c1ccc(C)cc1 (stereo not shown) [cpd 12] | 2 |
| CCCC(C(=O)O)c1c(C)nc(-c2ccccc2Cl)nc1-c1ccccc1 (stereo not shown) [cpd 16] | >1 |
| CCCC(C(=O)O)c1c(C)nc(-c2ccccc2)nc1-c1ccc(Cl)cc1O (stereo not shown) [cpd 111] | 4 |
| CCCC(C(=O)O)c1c(C)nc(-c2ccccc2)nc1N1CCCCC1 (stereo not shown) [cpd 60] | 5 |
| CCCC(C(=O)O)c1c(C)nc(N2CCCCC2)nc1-c1ccc(C)cc1Cl (stereo not shown) [cpd 144] | 9 |
| CCCC(C(=O)O)c1c(C)nc(N2CCc3ccccc32)nc1-c1ccc(C)cc1 (stereo not shown) [cpd 58] | 13 |
| CCCC(C(=O)O)c1c(C)nc(-c2ccccc2)nc1-c1cccc(O)c1 (stereo not shown) [cpd 26] | >2 |
| CCCC(C(=O)O)c1c(C)nc(N2CCCCC2)nc1-c1ccc(F)cc1F (stereo not shown) [cpd 130] | 4 |
| CCCC(C(=O)O)c1c(C)nc(-c2ccccc2)nc1-c1ccc2c(c1)CCO2 (stereo not shown) [cpd 70] | 2 |
| CCCC(C(=O)O)c1c(C)nc(-c2ccccc2)nc1-c1ccc(Cl)cc1F (stereo not shown) [cpd 94] | 4 |
| CCCC(C(=O)O)c1c(C)nc(N2CCCC(C(=O)NCC(C)C)C2)nc1-c1ccc(C)cc1 (stereo not shown) [cpd 38] | 24 |
| CCCC(C(=O)O)c1c(C)nc(N2CCCCC2)nc1-c1ccc(C)cc1C (stereo not shown) [cpd 132] | 3 |
| CCCC(C(=O)O)c1c(C)nc(-c2ccccc2)nc1-c1ccc(C)cc1O (stereo not shown) [cpd 119] | 4 |
| CCCC(C(=O)O)c1c(C)nc(-c2ccccc2)nc1-c1ccccc1 (stereo not shown) [cpd 24] | >2 |

| Structure (SMILES) | SI |
| --- | --- |
| CCCC(C(=O)O)c1c(C)nc(-c2ccccc2)nc1N1CCCCCC1 (stereo not shown) [cpd 62] | 4 |
| COCCC(C(=O)O)c1c(C)nc(N2CCCCC2)nc1-c1ccc(C)cc1 (stereo not shown) [cpd 122] | >12 |
| CCCC(C(=O)O)c1c(C)nc(-c2ccccc2)nc1N1CCN(C)CC1 (stereo not shown) [cpd 64] | >1 |
| CCCC(C(=O)O)c1c(C)nc(NCc2ccccc2)nc1-c1ccc(C)cc1 (stereo not shown) [cpd 168] | 5 |
| CCCC(C(=O)O)c1c(C)nc(-c2ccccc2)nc1-c1ccc2occc2c1 (stereo not shown) [cpd 72] | 2 |
| CCCC(C(=O)O)c1c(C)nc(N2CCCCC2)nc1N1CCCCC1 (stereo not shown) [cpd 148] | 8 |
| CCCC(C(=O)O)c1c(C)nc(-c2ccc(C)cc2)nc1-c1ccc(C)cc1 (stereo not shown) [cpd 10] | 3 |
| CCCC(C(=O)O)c1c(C)nc(N2CCCCC2)nc1-c1ccccc1 (stereo not shown) [cpd 20] | 8 |
| CCCC(C(=O)O)c1c(C)nc(NCC(C)(C)C)nc1-c1ccc(C)cc1 (stereo not shown) [cpd 174] | 6 |
| Cc1ccc(-c2nc(N3CCCCC3)nc(C)c2C(OC(C)(C)C)C(=O)O)cc1 (stereo not shown) [cpd 154] | 111 |
| CCCC(C(=O)O)c1c(C)nc(-c2cnn(C)c2)nc1-c1ccc(C)cc1 (stereo not shown) [cpd 162] | >3 |
| CCCC(C(=O)O)c1c(C)nc(-c2ccccc2)nc1-c1ccc(C)cc1 (stereo not shown) [cpd 14] | 5 |
| CCCC(C(=O)O)c1c(C)nc(N2CCCCC2)nc1-c1ccc(Cl)cc1F (stereo not shown) [cpd 146] | 8 |
| CCCC(C(=O)O)c1c(C)nc(N2CCCCC2)nc1-c1ccc(OC)cc1F (stereo not shown) [cpd 136] | 3 |
| CCCC(C(=O)O)c1c(C)nc(N2CCCC(C)C2)nc1-c1ccc(C)cc1 (stereo not shown) [cpd 40] | 5 |
| Cc1ccc(-c2nc(N3CCCCC3)nc(C)c2C(CCCC(F)(F)F)C(=O)O)cc1 (stereo not shown) [cpd 124] | 23 |
| Cc1ccc(-c2nc(N3CCCCC3)nc(C)c2C(CC(C)(C)C)C(=O)O)cc1 (stereo not shown) [cpd 152] | 21 |
| CCCC(C(=O)O)c1c(C)nc(N2CCCN(CC)CC2)nc1-c1ccc(C)cc1 (stereo not shown) [cpd 56] | >2 |
